Measured values from several laboratories, pooled; numbers as filed in NIAID ChemDB.

Common to all: target-level tests; species: Hepatitis C virus; protein: NS5B polymerase

ICn is the concentration giving n% inhibition. Two numbers with a dash give a range or band. Percent inhibition refers to the dose given; in toxicity tests it is the harm to the cells. Blank or dashed fields: not listed here. Rows are shuffled and stem from different studies.

O=C(O)/C=C/c1ccc(NC(=O)C2(NC(=O)c3ccc4c(c3)nc(-c3ccoc3)n4C3CCCC3)CCCC2)cc1 ; endpoint: IC50 ; result: <0.5 µM
COc1ccc2occ(-c3ccc4cc(-c5nc6cc(C(=O)O)ccc6n5C5CCCCC5)ccc4n3)c2c1 ; endpoint: inhibition ; tested at: 33 µM ; result: 101%
CCC[C@]1(CC(=O)O)OCCc2c1[nH]c1c(C)ccc(C#N)c21 ; endpoint: IC50 ; strain: J4 genotype 1B ; result: 0.4 µM
C[C@H]1CCC[C@H](C)C1n1c(-c2ccccc2)nc2cc(C(=O)NC3(C(=O)Nc4ccc(/C=C/C(=O)O)cc4)CCCC3)ccc21 ; endpoint: IC50 ; result: 0.5–5 µM
O=C(N[C@H](C(=O)O)c1c[nH]c2ccc(O)cc12)c1ccc2c(c1)nc(-c1ccc(O)cc1O)n2C1CCCCC1 ; endpoint: IC50 ; result: 1–5 µM
O=C(O)/C=C/c1ccc(NC(=O)C2(NC(=O)c3ccc4c(c3)nc(-c3ccsc3)n4C3CCCCC3)CCCC2)cc1 ; endpoint: IC50 ; result: <0.5 µM
CCCCSc1nc(Nc2ccc(N(CC)CC)cc2)cc(N2CCN(C(=O)c3ccncc3)CC2)n1 ; endpoint: inhibition ; tested at: 0.1 µg/mL ; result: 30–55%
CC(NC(=O)c1ccc2c(c1)nc(-c1ccoc1)n2C1CCCCC1)C(=O)Nc1ccc(-c2ccc(C(=O)O)o2)cc1 ; endpoint: IC50 ; result: <0.5 µM
O=C(N[C@@H](Cc1c[nH]c2ccc(O)cc12)C(=O)O)c1ccc2c(c1)nc(-c1ccoc1)n2[C@@H]1CC2CCC1C2 ; endpoint: IC50 ; result: <1 µM
C[C@@H](NC(=O)c1ccc2c(c1)nc(-c1ccoc1)n2C1CCCCC1)C(=O)Nc1ccc(OC(C)(C)C(=O)O)cc1 ; endpoint: IC50 ; result: 0.5–5 µM
O=C(O)c1cnc2c(c1)nc(-c1ccc3nc(-c4cc(O)ccc4-c4ccc(Cl)cc4)ccc3c1)n2C1CCCCC1 ; endpoint: inhibition ; tested at: 33 µM ; result: 101%
O=C(O)CCc1cccc(NC(=O)C2(NC(=O)c3ccc4c(c3)nc(-c3ccoc3)n4C3CCCCC3)CCCC2)c1 ; endpoint: IC50 ; result: 0.5–5 µM
CCSc1nc(N2CCN(C(=O)c3ccccc3)CC2)cc(N(C)c2ccc(N(C)C)cc2)n1 ; endpoint: inhibition ; tested at: 0.1 µg/mL ; result: 30–55%
O=C(O)/C=C/c1ccc(CC2CCN(CNC(=O)c3ccc4c(c3)nc(-c3ccoc3)n4C3CCCCC3)CC2)cc1 ; endpoint: IC50 ; result: 1–5 µM
NC(N)=NCCCC(NC(=O)c1ccc2c(c1)nc(-c1cc3ncc(-c4ccccc4)nc3cc1F)n2C1CCCCC1)C(=O)O ; endpoint: inhibition ; tested at: 33 µM ; result: 87.14%
O=C(O)COc1ccc2[nH]cc(C[C@H](NC(=O)c3ccc4c(c3)nc(-c3ccc(OCC(=O)CCNC(=O)c5ccc(C(=O)c6ccccc6)cc5)cc3)n4C3CCCCC3)C(=O)O)c2c1 ; endpoint: IC50 ; result: <1 µM
COc1ccc(-c2ccc(Cl)cc2)c(-c2ccc3cc(-c4nc5cc(C(=O)O)ccc5n4Cc4ccccc4)ccc3n2)c1 ; endpoint: inhibition ; tested at: 100 µM ; result: 101%
COc1ccc([C@H](NC(=O)c2ccc3c(c2)nc(-c2ccoc2)n3C2CCCCC2)C(=O)O)cc1OC ; endpoint: IC50 ; result: <1 µM
CCSc1nc(N2CCN(C(=O)c3ccccc3)CC2)cc(N(C)c2ccc(N(CC)CC)cc2)n1 ; endpoint: inhibition ; tested at: 0.1 µg/mL ; result: 30–55%
CNc1nc(C[C@H](Cc2ccc(OCC(=O)O)cc2)NC(=O)c2ccc3c(c2)nc(-c2ccoc2)n3C2CCCCC2)cs1 ; endpoint: IC50 ; result: 1–5 µM
O=C(NC1(C(=O)Nc2ccc(-c3nc(C(=O)O)cs3)cc2)CCCC1)c1ccc2c(c1)nc(-c1ccoc1)n2C1CCCCC1 ; endpoint: IC50 ; result: <0.5 µM
CC(=O)Nc1ccc(-c2nc3cc(C(=O)N[C@H](C(=O)O)c4c[nH]c5ccc(O)cc45)ccc3n2C2CCCCC2)cc1 ; endpoint: IC50 ; result: 1–5 µM
O=C(O)/C=C/c1ccc(NC(=O)C2(NC(=O)c3ccc4c(c3)nc(-c3ccoc3)n4C3CCCCC3)CCC2)cc1 ; endpoint: IC50 ; result: <0.5 µM
CCOC(=O)c1ccc(CC)nc1Nc1ccc(N2CCOCC2)cc1 ; endpoint: inhibition ; tested at: 0.1 µg/mL ; result: 30–55%
O=C(O)COc1ccc2[nH]cc(C[C@H](NC(=O)c3ccc4c(c3)nc(-c3ccc(OCC(=O)NCCNC(=S)Nc5ccc(-c6c7ccc(=O)cc-7oc7cc(O)ccc67)cc5C(=O)O)cc3)n4C3CCCCC3)C(=O)O)c2c1 ; endpoint: IC50 ; result: <1 µM

3 of the rows above, restated:

| structure | endpoint | tested at | strain | result |
|---|---|---|---|---|
| CCSc1nc(N2CCN(C(=O)c3ccccc3)CC2)cc(N(C)c2ccc(N(C)C)cc2)n1 | inhibition | 0.1 µg/mL | - | 30–55% |
| CCCCSc1nc(Nc2ccc(N(CC)CC)cc2)cc(N2CCN(C(=O)c3ccncc3)CC2)n1 | inhibition | 0.1 µg/mL | - | 30–55% |
| COc1ccc(-c2ccc(Cl)cc2)c(-c2ccc3cc(-c4nc5cc(C(=O)O)ccc5n4Cc4ccccc4)ccc3n2)c1 | inhibition | 100 µM | - | 101% |